A mixed list of measured activities; the numbers were collected in NIAID ChemDB.

Shared fields: tests in culture; organism: Candida krusei; endpoint: MIC

Neighbouring rows are from separate reports. An empty or dashed field is not shown.

| smiles | strain | read by | setting | value |
|---|---|---|---|---|
| C[C@@H]1CC(=O)N(c2ccc(Br)cc2)C1=O | CCC 117-2000 | broth dilution / turbidity | - | 62.5 µg/mL |
| O=C(CCn1ccnc1)c1cccc(C(O)c2ccc(Cl)cc2)c1 | RTCC 1090 | broth dilution | - | 64 µg/mL |
| CCCc1ccc(NS(=O)(=O)c2ccc(CN(C)CC(O)(Cn3cncn3)c3ccc(F)cc3F)cc2)cc1 | 506 | resazurin | - | 1.2 µg/mL |
| OC(CCn1ccnc1)c1cccc(C(O)c2ccc(Br)cc2)c1 | RTCC 1001 | broth dilution | - | >64 µg/mL |
| CC1CC(=O)N(c2ccccc2)C1=O | CCC 117-2000 | broth dilution / turbidity | - | 125 µg/mL |
| CCOc1ccc2nc3cc(N=C4NC(=O)/C(=C\C=C\c5ccc([N+](=O)[O-])o5)S4)ccc3c(N)c2c1 | - | broth dilution | - | 500 µg/mL |
| CC(C)(O)c1cn(-c2ccc(Br)cc2)nn1 | URM 1059 | broth dilution | - | 512 µg/mL |
| Ic1ccc(-c2csc(N/N=C\c3cccc4ccccc34)n2)cc1 | Clinical isolates | - | 18 h | 2 µg/mL |
| CN(Cc1ccc(NS(=O)(=O)c2ccc([N+](=O)[O-])cc2)cc1)CC(O)(Cn1cncn1)c1ccc(F)cc1F | 506 | resazurin | - | 15.3 µg/mL |
| C[C@H]1[C@H](O)[C@@H](C)/C=C/C=C/C=C/C=C/C=C/C=C/C=C/[C@H](O[C@@H]2O[C@H](C)[C@@H](O)[C@H](N)[C@@H]2O)C[C@@H]2O[C@](O)(C[C@@H](O)C[C@@H](O)CC[C@H](O)[C@@H](O)C[C@@H](O)CC(=O)O[C@H]1C)C[C@H](O)[C@H]2C(=O)O | NBRC 1395 | broth dilution | 48 h | 2 µg/mL |
| C[C@@H]1CC(=O)N(CCc2ccccc2)C1=O | CCC 117-2000 | broth dilution / turbidity | - | 125 µg/mL |
| CC(C)(O)c1cn(-c2ccc(Cl)cc2)nn1 | URM 109 | broth dilution | - | 128 µg/mL |
| O=c1cc(-c2ccc(O)c(O)c2)oc2cc(O)c([C@@H]3O[C@H](CO)[C@@H](O)[C@H](O)[C@H]3O)c(O)c12 | ATCC 6258 | broth dilution | - | 500 µg/mL |
| OC(CCn1ccnc1)c1ccc(Br)cc1 | RTCC 1090 | broth dilution | - | >64 µg/mL |
| Cc1coc2c1C(=O)[C@@H]1[C@](C)([C@H](O)CC[C@@]1(C)O)[C@@H]2O | ATCC 6258 | broth dilution | - | >256 µg/mL |
| N=c1oc2ccccc2c2csc(N)c12 | ATCC 6258 | broth dilution | - | 64 µg/mL |
| CCCCCCCCCCCCCCCC(=O)NC(CCCCN)C(=O)NC(CCCCN)C(N)=O | 4684 | broth dilution | - | 1 µg/mL |
| O=C(CCn1ccnc1)c1ccc(Br)cc1 | RTCC 1001 | broth dilution | - | >64 µg/mL |
| Cc1ccc(N2N=C(c3c[nH]c4ccccc34)CC2c2ccc(Cl)cc2Cl)cc1 | NRRL Y-7179 | broth dilution | - | 200 µg/mL |
| CC1=C2C3=C4[C@@](C)(C(=O)[C@]2(O)OC1=O)[C@@H]1C[C@@H]1[C@@]4(O)C[C@@H]1[C@]32OC(=O)C3=C2C[C@H]2[C@](O)(COC(=O)/C(C)=C/COC(=O)CCC(=O)OC3)[C@H]3C[C@H]3[C@]12C | ATCC 6258 | broth dilution | - | >256 µg/mL |
| CN(Cc1ccc(S(N)(=O)=O)cc1)CC(O)(Cn1cncn1)c1ccc(F)cc1F | 8 | resazurin | - | 13.2 µg/mL |
| OC(CCn1ccnc1)c1cccc(C(O)c2ccc(Cl)c(Cl)c2)c1 | RTCC 1090 | broth dilution | - | >64 µg/mL |
| Cc1ccc(N2N=C(c3c[nH]c4ccccc34)CC2c2cccc(Cl)c2Cl)cc1 | NRRL Y-7179 | broth dilution | - | 200 µg/mL |
| CC1CC(=O)N(CCc2ccccc2)C1=O | CCC 117-2000 | broth dilution / turbidity | - | 125 µg/mL |
| C[N-]c1nc(NOC)c2c(n1)[N+](C)=C=[N+]2C/C=C(\C)CC/C=C(\C)CC/C=C(\C)CCC=C(C)C | ATCC 6258 | agar | - | 2 µg/mL |
| CC(=O)N1CCN(c2ccc(OC[C@H]3CO[C@](Cn4ccnc4)(c4ccc(Cl)cc4Cl)O3)cc2)CC1 | NRRL Y-7179 | broth dilution | - | 1.56 µg/mL |
| CO[N-]c1nc(C)nc2c1[N+](C/C=C(\C)CC/C=C(\C)CC/C=C(\C)CCC=C(C)C)=C=[N+]2C | ATCC 6258 | agar | - | 2 µg/mL |
| C[C@@H]1C(=O)N(CCCc2ccccc2)C(=O)[C@@H]1C | CCC 117-2000 | broth dilution / turbidity | - | 62.5 µg/mL |
| CN(Cc1ccc(S(=O)(=O)NC(C)(C)C)cc1)CC(O)(Cn1cncn1)c1ccc(F)cc1F | 506 | resazurin | - | 2.2 µg/mL |
| CC1=C2C(=O)c3c(C)coc3C[C@@]2(C)[C@H](O)C[C@H]1O | ATCC 6258 | broth dilution | - | >256 µg/mL |
| Cc1ccc(N2N=C(c3c[nH]c4ccccc34)CC2c2c(Cl)cccc2Cl)cc1 | NRRL Y-7179 | broth dilution | - | 50 µg/mL |
| CC(C)c1ccc(S(=O)(=O)Nc2ccc(CN(C)CC(O)(Cn3cncn3)c3ccc(F)cc3F)cc2)cc1 | 506 | resazurin | - | 2 µg/mL |
| CC1=C2C3=C4[C@](C)([C@@H]5C[C@@H]5[C@@]4(O)C[C@@H]4[C@]35OC(=O)C3=C5C[C@H]5[C@](O)(COC(=O)/C(C)=C/COC(=O)CCC(=O)OC3)[C@H]3C[C@H]3[C@]45C)[C@H](O)[C@]2(O)OC1=O | ATCC 6258 | broth dilution | - | >256 µg/mL |
| O=C(CCn1ccnc1)c1cccc(O)c1 | RTCC 1001 | broth dilution | - | >64 µg/mL |
| O=C(/C=C/c1ccc(Cl)c(Cl)c1)c1c[nH]c2ccccc12 | NRRL Y-7179 | broth dilution | - | 200 µg/mL |

A second listing of 3 rows from above:

smiles | strain | read by | setting | value
N=c1oc2ccccc2c2csc(N)c12 | ATCC 6258 | broth dilution | - | 64 µg/mL
Cc1ccc(N2N=C(c3c[nH]c4ccccc34)CC2c2c(Cl)cccc2Cl)cc1 | NRRL Y-7179 | broth dilution | - | 50 µg/mL
Cc1coc2c1C(=O)[C@@H]1[C@](C)([C@H](O)CC[C@@]1(C)O)[C@@H]2O | ATCC 6258 | broth dilution | - | >256 µg/mL